# According to PubChem BioAssay AID488895 (Broad Institute, 2010):
# This is a selection; strong and weak results do not stand in their true shares. Calls of active or inactive are those of the source.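 How the source made its calls: active means mean replicate inhibition at least 50% and at least half of replicates individually reaching 50%; inconclusive means only one of the two criteria met; inactive means neither criterion met.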
# Experiment: E. coli Tat export inhibitors, primary screen, MC4100, TorA-mCherry reporter, fluorescence, single point (AID 488895);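 further: exported cargo escapes ClpAP degradation while cytoplasmic cargo is degraded and loses fluorescence; 0% = median of neutral control wells and 100% = median of NaSCN control wells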
# Conditions: at 10 µM, active compounds read high
row,Compound,inhibition
1,O=C(NCC1(N2CCCCC2)CCCCC1)c1ccc(Cl)nc1,inactive: -1.01%
2,Cc1cc(C)cc(N(C(=O)c2ccccc2)C2CCN(C(=O)OC(C)(C)C)CC2)c1,inactive: 8.12%
3,O=C(NCC1(N2CCOCC2)CCCCC1)c1cc2ccccc2o1,inactive: 3.67%
4,O=C(NCC1(N2CCCCC2)CCCCC1)c1ccc(Cl)s1,inactive: -2.28%
5,N#CC1(Nc2ccccc2)CCN(Cc2ccccc2)CC1,inactive: 0.131%
6,O=C(OC1CN2CCC1CC2)C1c2ccccc2Oc2ccccc21 (centres undefined),inactive: -10%
7,COc1ccc(Cl)cc1C(=O)NCC1(N2CCOCC2)CCCCC1,inactive: -0.78%
8,CCOC(=O)N1CCC(Nc2ccc(OC)cc2)CC1,inactive: 8.38%
9,COc1ccc(C(=O)NCC2(N3CCCCC3)CCCCC2)cc1,inactive: -5.4%
10,COc1ccc(C(=O)NCC2(N3CCCCC3)CCCCC2)c(OC)c1OC,inactive: -7.03%
11,CC(C)(C)OC(=O)N1CCC(N(C(=O)c2ccccc2)c2ccc(F)cc2)CC1,inactive: -2.41%
12,O=C(NCC1(N2CCCCC2)CCCCC1)c1ccc(=O)[nH]c1,inactive: 0.161%
13,O=C(NCC1(N2CCCCC2)CCCCC1)c1cccs1,inactive: -3.22%
14,CSc1ccccc1C(=O)NCC1(N2CCCCC2)CCCCC1,inactive: -2.95%
15,Cc1cccc(NC2(C#N)CCN(Cc3ccccc3)CC2)c1,inactive: 2.4%
16,CCOC(=O)N1CCC(Nc2cccc(C)c2)CC1,inactive: -8.35%
17,COc1cc(C(=O)NCC2(N(C)C)CCCCC2)ccc1OC(F)F,inactive: -3.79%
18,O=C1CCN(Cc2ccccc2)CC1,inactive: 3.87%
19,CCOc1ccc(C)cc1CN(CCCl)CCCl,inactive: 10.8%
20,O=P1(N(CCCl)CCCl)SCCCS1,inactive: 5.32%
21,CCCCOc1ccc(C(=O)NCC2(N3CCOCC3)CCCCC2)cc1,inactive: 10.5%
22,COc1ccc(NC2CCN(CCc3ccccc3)CC2)c(OC)c1,inactive: -13.1%
23,CCOC(=O)N1CCC(Nc2ccc(F)cc2)CC1,inactive: -7.36%
24,O=C(NCC1(N2CCCCC2)CCCCC1)c1cccc(C(F)(F)F)c1,inactive: 1.95%
25,COc1cc(C(=O)NCC2(N3CCCCC3)CCCCC2)ccc1OC(F)F,inactive: 6.65%
26,O=C(NCC1(N2CCOCC2)CCCCC1)c1cc(=O)[nH]c2ccccc12,inactive: 1.98%
27,CN1CCN(CCOC(=O)C(O)(c2ccccc2)c2ccccc2)CC1,inactive: -3.95%
28,COc1ccc(NC2CCN(C(=O)OC(C)(C)C)CC2)cc1,inactive: -1.53%
29,CC(C)c1ccc(C(=O)NCC2(N3CCOCC3)CCCCC2)cc1,inactive: 2.02%
